The values that follow are results of earlier work, collected in patent publication US10344060B2 (priority 2013, dated 2019).

Amino acid sequences for entries named in this document (tags omitted).
UniProt P04775, whole entry, looked up: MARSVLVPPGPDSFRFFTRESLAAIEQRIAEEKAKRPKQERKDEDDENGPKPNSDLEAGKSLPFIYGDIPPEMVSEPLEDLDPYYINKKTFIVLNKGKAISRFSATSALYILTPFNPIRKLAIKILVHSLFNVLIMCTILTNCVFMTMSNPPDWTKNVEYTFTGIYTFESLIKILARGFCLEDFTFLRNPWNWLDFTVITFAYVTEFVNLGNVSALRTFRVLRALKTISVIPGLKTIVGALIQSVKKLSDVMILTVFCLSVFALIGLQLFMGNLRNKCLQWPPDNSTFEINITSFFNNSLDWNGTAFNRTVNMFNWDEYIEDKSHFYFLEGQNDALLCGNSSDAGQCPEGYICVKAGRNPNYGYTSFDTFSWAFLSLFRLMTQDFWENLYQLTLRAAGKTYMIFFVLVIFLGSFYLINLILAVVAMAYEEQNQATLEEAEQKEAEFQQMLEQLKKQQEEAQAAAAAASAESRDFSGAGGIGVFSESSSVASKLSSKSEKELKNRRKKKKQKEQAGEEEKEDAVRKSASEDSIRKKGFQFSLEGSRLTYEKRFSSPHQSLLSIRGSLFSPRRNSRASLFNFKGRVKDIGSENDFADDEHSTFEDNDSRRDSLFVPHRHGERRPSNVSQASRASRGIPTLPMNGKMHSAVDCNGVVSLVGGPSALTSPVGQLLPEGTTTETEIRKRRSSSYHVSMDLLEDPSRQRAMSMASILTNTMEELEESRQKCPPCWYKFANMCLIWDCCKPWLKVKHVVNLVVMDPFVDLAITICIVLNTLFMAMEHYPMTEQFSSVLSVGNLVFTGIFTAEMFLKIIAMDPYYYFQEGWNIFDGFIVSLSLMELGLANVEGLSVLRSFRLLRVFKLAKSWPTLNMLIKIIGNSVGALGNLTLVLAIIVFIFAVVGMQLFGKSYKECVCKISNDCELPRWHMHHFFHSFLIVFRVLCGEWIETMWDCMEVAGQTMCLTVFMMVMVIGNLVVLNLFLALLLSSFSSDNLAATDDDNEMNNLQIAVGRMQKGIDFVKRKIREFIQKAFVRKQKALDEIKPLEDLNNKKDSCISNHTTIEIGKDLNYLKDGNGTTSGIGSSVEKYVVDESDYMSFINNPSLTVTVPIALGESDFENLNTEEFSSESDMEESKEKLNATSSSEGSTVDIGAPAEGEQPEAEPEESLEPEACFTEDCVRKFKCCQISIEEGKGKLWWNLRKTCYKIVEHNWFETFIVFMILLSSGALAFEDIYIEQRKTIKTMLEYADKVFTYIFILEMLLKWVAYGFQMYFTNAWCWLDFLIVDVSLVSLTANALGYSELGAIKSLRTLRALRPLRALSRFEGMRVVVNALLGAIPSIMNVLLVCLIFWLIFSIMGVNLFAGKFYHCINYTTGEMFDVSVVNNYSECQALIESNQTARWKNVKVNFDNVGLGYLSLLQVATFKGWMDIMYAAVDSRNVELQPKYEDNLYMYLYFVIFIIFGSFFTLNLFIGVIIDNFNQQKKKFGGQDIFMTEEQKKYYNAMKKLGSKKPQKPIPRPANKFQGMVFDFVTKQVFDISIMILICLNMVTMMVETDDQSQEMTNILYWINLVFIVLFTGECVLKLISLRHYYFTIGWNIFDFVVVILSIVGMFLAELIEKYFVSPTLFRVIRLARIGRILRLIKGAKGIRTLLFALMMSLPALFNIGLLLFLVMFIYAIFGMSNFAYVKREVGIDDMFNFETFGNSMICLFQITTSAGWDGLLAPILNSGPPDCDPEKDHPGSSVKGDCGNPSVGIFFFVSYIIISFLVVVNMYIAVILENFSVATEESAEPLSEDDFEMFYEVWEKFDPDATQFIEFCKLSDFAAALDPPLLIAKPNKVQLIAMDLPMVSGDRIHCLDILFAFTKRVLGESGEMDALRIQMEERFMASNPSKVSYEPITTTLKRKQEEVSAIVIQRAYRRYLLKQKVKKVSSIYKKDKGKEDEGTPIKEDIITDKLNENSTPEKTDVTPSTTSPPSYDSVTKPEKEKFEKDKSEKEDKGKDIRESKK

Series [1] deals with Nav1.1 (Rattus norvegicus, UniProt P04774). Particulars: read-out: TTX IC50; cited from earlier work.
For series [2], the target named is Nav1.2 (Rattus norvegicus, UniProt P04775). Conditions: read-out: TTX IC50; cited from earlier work.

pIC50: −log10 of the molar value.

In the case of `NC1=N[C@H](O)[C@H]2[C@H]3O[C@]4(O)O[C@@H]([C@@H](O)[C@@]2(N1)[C@@H]4O)[C@]3(O)CO` [TTX, tetrodotoxin], the negative-log IC50 (pIC50) in series [1] and in series [2] was 8.00 throughout.

For orientation: pIC50 means −log10 of the IC50, conventionally taken in molar units.
